Molecular target: T1, HA-tagged wild-type hCMV (Towne) immediate-early 1 protein (IE1) (human cytomegalovirus (hCMV), strain …, UniProt P03169 1-491)
T1 sequence: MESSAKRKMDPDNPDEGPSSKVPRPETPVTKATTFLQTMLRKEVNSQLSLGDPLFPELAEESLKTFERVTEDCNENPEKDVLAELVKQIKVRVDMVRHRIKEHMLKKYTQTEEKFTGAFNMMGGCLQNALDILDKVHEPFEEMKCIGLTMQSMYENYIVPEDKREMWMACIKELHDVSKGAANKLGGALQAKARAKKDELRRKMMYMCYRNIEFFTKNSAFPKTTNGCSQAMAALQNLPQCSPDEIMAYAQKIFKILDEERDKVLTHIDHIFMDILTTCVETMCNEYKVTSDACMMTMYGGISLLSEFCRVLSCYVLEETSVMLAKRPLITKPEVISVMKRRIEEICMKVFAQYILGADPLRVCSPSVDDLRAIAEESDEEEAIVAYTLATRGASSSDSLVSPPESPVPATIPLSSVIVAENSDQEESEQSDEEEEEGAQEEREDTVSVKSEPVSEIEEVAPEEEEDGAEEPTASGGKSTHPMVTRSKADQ
Experiment: cell-based or functional assay

B1: STAT3α, endogenous in MRC-5-derived TetR cells (natural protein)
chain: not shown
expression of pSTAT1-responsive type II ISGs (CXCL10 and CXCL11) after IL6 plus IL6R for 24 h (RT-qPCR), cells with wild-type IE1 compared to cells with IE1dl410-420 or no viral protein: ~1000 fold

— PMC4936752, “Human Cytomegalovirus Immediate-Early 1 Protein Rewires Upstream STAT3 to Downstream STAT1 Signaling Switching an IL6-Type to an IFNγ-Like Response” (PLoS Pathogens, 2016)
